Measured values from several laboratories, pooled; numbers as filed in NIAID ChemDB.

Shared fields: enzyme or target tests; species: HIV-1; target: gp120; read by: ELISA; read-out: IC50

ICn is the concentration giving n% inhibition. Blank or dashed fields: not listed here. Rows are shuffled and stem from different studies.

structure | conditions | strain or isolate | result
CC(C)[C@H](NC(=O)[C@@H](N)Cc1ccccc1)C(=O)N[C@@H](Cc1ccccc1)C(=O)N[C@@H](CCCN=C(N)N)C(N)=O |  |  | 2630 µM
CC[C@H](C)[C@H](N)C(=O)N[C@@H](CC(N)=O)C(=O)N[C@@H](CC(N)=O)C(=O)N[C@H](C(=O)N1CCC[C@H]1C(=O)N[C@@H](Cc1c[nH]c2ccccc12)C(=O)N[C@@H](CO)C(=O)O)[C@@H](C)CC |  | SF2 | 12 µM
O=c1c(O)cc([C@H]2Oc3cc(O)cc(O)c3C[C@H]2O)cc2c([C@H]3Oc4cc(O)cc(O)c4C[C@H]3O)cc(O)c(O)c12 |  |  | >20 µM
O=S(=O)(O)c1c2ccccc2c(-c2c3nc(c(-c4c5ccccc5c(S(=O)(=O)O)c5ccccc45)c4ccc([nH]4)c(-c4c5ccccc5c(S(=O)(=O)O)c5ccccc45)c4nc(c(-c5c6ccccc6c(S(=O)(=O)O)c6ccccc56)c5ccc2[nH]5)C=C4)C=C3)c2ccccc12 |  | IIIB | <50 µg/mL
CN1C(=O)C(c2cc(Cl)c(O)c(Cl)c2)NC(=O)[C@@H]2NC(=O)C(c3cc(Cl)c(O)c(Cl)c3)NC(=O)[C@H](NC(=O)C(=O)c3cc(Cl)c(O)c(Cl)c3)Cc3c[nH]c4c(cccc34)-c3cc2cc(c3O)Oc2ccc(cc2)CC1C(=O)NC(C(=O)O)c1ccc(O)cc1 |  | MN | 0.31 µM
COc1cccc2[nH]cc(C(=O)C(=O)N3CCN(C(=O)c4ccccc4)C[C@H]3C)c12 |  | JR-FL | 0.28 µM
Cc1ccc(C(=O)Nc2ccc(S(=O)(=O)O)c3cc(S(=O)(=O)O)cc(S(=O)(=O)O)c23)cc1NC(=O)c1cccc(NC(=O)Nc2cccc(C(=O)Nc3cc(C(=O)Nc4ccc(S(=O)(=O)O)c5cc(S(=O)(=O)O)cc(S(=O)(=O)O)c45)ccc3C)c2)c1 |  |  | >500 µg/mL
NC(=O)[C@H](CCCN=C(N)N)NC(=O)[C@H](CO)NC(=O)[C@@H](N)Cc1ccccc1 |  |  | 820 µM
NC(=O)c1ccc(C(NC(=O)c2ccc(C(NC(=O)c3ccc(C(=O)C(=O)O)cc3)(NC(=O)c3ccc(C(=O)C(=O)O)cc3)C(=O)O)cc2)(NC(=O)c2ccc(C(NC(=O)c3ccc(C(=O)C(=O)O)cc3)(NC(=O)c3ccc(C(=O)C(=O)O)cc3)C(=O)O)cc2)C(=O)O)cc1 |  |  | 8 µg/mL
Cc1cn([C@H]2C[C@H](N=[N+]=[N-])[C@@H](CO)O2)c(=O)[nH]c1=O |  |  | >100 µg/mL
NC(=O)[C@H](CCCN=C(N)N)NC(=O)[C@H](CCCN=C(N)N)NC(=O)[C@@H](N)Cc1ccccc1 |  |  | 690 µM
O=C(Oc1cc(O)cc2c1C[C@@H](OC(=O)c1cc(O)c(O)c(O)c1)[C@@H](c1cc(O)c(O)c(O)c1)O2)c1cc(O)c(O)c(O)c1 |  |  | >20 µM
NC(=O)[C@H](CCCN=C(N)N)NC(=O)[C@H](Cc1ccccc1)NC(=O)[C@H](Cc1ccccc1)NC(=O)[C@@H](N)Cc1ccccc1 |  |  | 720 µM
O=S(=O)(O)c1c2ccccc2c(-c2c3nc(c(-c4c5ccccc5c(S(=O)(=O)O)c5ccccc45)c4ccc([nH]4)c(-c4c5ccccc5c(S(=O)(=O)O)c5ccccc45)c4nc(c(-c5c6ccccc6c(S(=O)(=O)O)c6ccccc56)c5ccc2[nH]5)C=C4)C=C3)c2ccccc12 |  | IIIB | <50 µg/mL
C[C@@H]1CN(C(=O)c2ccccc2)CCN1C(=O)C(=O)c1c[nH]c2ccccc12 |  | YU2 | <0.1 µM
NC(=O)[C@H](CCCN=C(N)N)NC(=O)[C@H](Cc1c[nH]c2ccccc12)NC(=O)[C@@H](N)Cc1ccccc1 |  |  | 310 µM
COC(=O)C(=O)N1CCC[C@@H]1C(=O)N[C@H](Cc1ccccc1)C(=O)OCc1ccccc1 | 1% FBS |  | >500 µM
O=C(O[C@@H]1Cc2c(O)cc(O)cc2O[C@@H]1c1cc(O)c(O)c(O)c1-c1c([C@H]2Oc3cc(O)cc(O)c3C[C@H]2OC(=O)c2cc(O)c(O)c(O)c2)cc(O)c(O)c1O)c1cc(O)c(O)c(O)c1 |  |  | >20 µM
CCCCCCCCCC1N=C(N)N2CCCC2=C1C(=O)OCCCCN=C(N)N |  |  | >100 µM
NCCCC[C@H](NC(=O)[C@@H](N)Cc1ccccc1)C(=O)N[C@@H](CCCN=C(N)N)C(N)=O |  |  | 390 µM

The first 2 rows once more:

structure | conditions | strain or isolate | result
CC(C)[C@H](NC(=O)[C@@H](N)Cc1ccccc1)C(=O)N[C@@H](Cc1ccccc1)C(=O)N[C@@H](CCCN=C(N)N)C(N)=O |  |  | 2630 µM
CC[C@H](C)[C@H](N)C(=O)N[C@@H](CC(N)=O)C(=O)N[C@@H](CC(N)=O)C(=O)N[C@H](C(=O)N1CCC[C@H]1C(=O)N[C@@H](Cc1c[nH]c2ccccc12)C(=O)N[C@@H](CO)C(=O)O)[C@@H](C)CC |  | SF2 | 12 µM